Test system: DENV-2 16681 strain
Assay: DENV-2 antiviral assay (eGFP fluorescence, Vero cells)
Format: cell-based, Dengue virus
Settings: SI=CC50/EC50, DENV-2 antiviral assay
Experimental: The antiviral activity of all the compounds of the invention was tested against the DENV-2 16681 strain which was labeled with enhanced green fluorescent protein (eGPF). The culture medium consists of minimal essential medium supplemented with 2% of heat-inactivated fetal calf serum, 0.04% gentamycin (50 mg/mL) and 2 mM of L-glutamine. Vero cells, obtained from ECACC, were suspended in culture medium and 25 μL was added to 384-well plates (2500 cells/well), which already contain the antiviral compounds. Typically, these plates contain a 5-fold serial dilution of 9 dilution steps of the test compound at 200 times the final concentration in 100% DMSO (200 nL). […] Finally, each plate contains wells which are assigned as virus controls (containing cells and virus in the absence of compound), cell controls (containing cells in the absence of virus and compound) and medium controls (containing medium in the absence of cells, virus and compounds). To the wells assigned as medium control, 25 μL of culture medium was added instead of Vero cells. Once the cells were added to the plates, the plates were incubated for 30 minutes at room temperature to allow the cells to distribute evenly within the wells. Next, the plates were incubated in a fully humidified incubator (37° C., 5% CO2) until the next day. Then, DENV-2 strain 16681, labeled with eGFP, was added at a multiplicity of infection (MOI) of 0.5. Therefore, 15 μL of virus suspension was added to all the wells containing test compound and to the wells assigned as virus control. In parallel, 15 μL of culture medium was added to the medium and cell controls. Next, the plates were incubated for 3 days in a fully humidified incubator (37° C., 5% CO2). At the day of the read out, the eGFP fluorescence was measured using an automated fluorescence microscope at 488 nm (blue laser). Using an in-house LIMS system, inhibition dose response curves for each compound were calculated and the half maximal effective concentration (EC50) was determined. Therefore, the percent inhibition (I) for every test concentration is calculated using the following formula: I=100*(ST-SCC)/(SVC-SCC), ST, SCC and SVC are the amount of eGFP signal in the test compound, cell control and virus control wells, respectively. The EC50 represents the concentration of a compound at which the virus replication is inhibited with 50%, as measured by a 50% reduction of the eGFP fluorescent intensity compared to the virus control. The EC50 is calculated using linear interpolation (Table 1).

SMILES	SI
COc1cc(NC(C(=O)N2CCc3ccc(C(F)(F)F)cc32)c2ccc(F)cc2OCCO)cc(-n2cncn2)c1 (racemic) [Compound 1, 2-(4-fluoro-2-(2-hydroxyethoxy)phenyl)-2-((3-methoxy-5-(1H-1,2,4-triazol-1-yl)phenyl)amino)-1-(6-(trifluoromethyl)indolin-1-yl)ethanone]	3350
COc1cc(NC(C(=O)N2CCc3cc(OC)c(C(F)(F)F)cc32)c2ccc(F)cc2OCCO)cc(-n2cncn2)c1 (racemic) [Compound 2, 2-(4-fluoro-2-(2-hydroxyethoxy)phenyl)-2-((3-methoxy-5-(1H-1,2,4-triazol-1-yl)phenyl)amino)-1-(5-methoxy-6-(trifluoromethyl)indolin-1-yl)ethanone]	4000
COc1cc(NC(C(=O)N2CCc3ccc(OC(F)(F)F)cc32)c2ccc(F)cc2OCCO)cc(-n2cncn2)c1 (racemic) [Compound 3, 2-(4-fluoro-2-(2-hydroxyethoxy)phenyl)-2-((3-methoxy-5-(1H-1,2,4-triazol-1-yl)phenyl)amino)-1-(6-(trifluoromethoxy)indolin-1-yl)ethanone]	5210
COc1cc(NC(C(=O)N2CCc3cc(OC)c(C(F)(F)F)cc32)c2ccc(Cl)cc2OCCO)cc(-n2cncn2)c1 (racemic) [Compound 5, 2-(4-chloro-2-(2-hydroxyethoxy)phenyl)-2-((3-methoxy-5-(1H-1,2,4-triazol-1-yl)phenyl)amino)-1-(5-methoxy-6-(trifluoromethyl)indolin-1-yl)ethanone]	11200
COc1cc(NC(C(=O)N2CCc3ccc(OC(F)(F)F)cc32)c2ccc(Cl)cc2OCCO)cc(-n2cncn2)c1 (racemic) [Compound 6, 2-(4-chloro-2-(2-hydroxyethoxy)phenyl)-2-((3-methoxy-5-(1H-1,2,4-triazol-1-yl)phenyl)amino)-1-(6-(trifluoromethoxy)indolin-1-yl)ethanone]	3370
COc1cc(NC(C(=O)N2CCc3cc(F)c(C(F)(F)F)cc32)c2ccc(Cl)cc2OCCO)cc(-n2cncn2)c1 (racemic) [Compound 7, 2-(4-chloro-2-(2-hydroxyethoxy)phenyl)-1-(5-fluoro-6-(trifluoromethyl)indolin-1-yl)-2-((3-methoxy-5-(1H-1,2,4-triazol-1-yl)phenyl)amino)ethanone]	3410
COc1cc(NC(C(=O)N2CCc3cc(OC)c(OC(F)(F)F)cc32)c2ccc(Cl)cc2OCCO)cc(-n2cncn2)c1 (racemic) [Compound 8, 2-(4-chloro-2-(2-hydroxyethoxy)phenyl)-2-((3-methoxy-5-(1H-1,2,4-triazol-1-yl)phenyl)amino)-1-(5-methoxy-6-(trifluoromethoxy)indolin-1-yl)ethanone]	4410
COc1cc(NC(C(=O)N2CCc3cc(F)c(OC(F)(F)F)cc32)c2ccc(Cl)cc2OCCO)cc(-n2cncn2)c1 (racemic) [Compound 9, 2-(4-chloro-2-(2-hydroxyethoxy)phenyl)-1-(5-fluoro-6-(trifluoromethoxy)indolin-1-yl)-2-((3-methoxy-5-(1H-1,2,4-triazol-1-yl)phenyl)amino)ethanone]	2850
COc1cc(NC(C(=O)N2CCc3c(C)cc(OC(F)(F)F)cc32)c2ccc(Cl)cc2OCCO)cc(-n2cncn2)c1 (racemic) [Compound 10, 2-(4-chloro-2-(2-hydroxyethoxy)phenyl)-2-((3-methoxy-5-(1H-1,2,4-triazol-1-yl)phenyl)amino)-1-(4-methyl-6-(trifluoromethoxy)indolin-1-yl)ethanone]	26600
COc1cc(NC(C(=O)N2CCc3ccc(C(F)(F)F)cc32)c2ccc(Cl)cc2OCCCC(=O)O)cc(-n2cncn2)c1 (racemic) [Compound 11, 4-(5-chloro-2-(1-((3-methoxy-5-(1H-1,2,4-triazol-1-yl)phenyl)amino)-2-oxo-2-(6-(trifluoromethyl)indolin-1-yl)ethyl)phenoxy)butanoic acid]	53500
COc1cc(NC(C(=O)N2CCc3cc(OC)c(C(F)(F)F)cc32)c2ccc(Cl)cc2OCCCC(=O)O)cc(-n2cncn2)c1 (racemic) [Compound 12, 4-(5-chloro-2-(1-((3-methoxy-5-(1H-1,2,4-triazol-1-yl)phenyl)amino)-2-(5-methoxy-6-(trifluoromethyl)indolin-1-yl)-2-oxoethyl)phenoxy)butanoic acid]	5660
COc1cc(NC(C(=O)N2CCc3ccc(OC(F)(F)F)cc32)c2ccc(Cl)cc2OCCCC(=O)O)cc(-n2cncn2)c1 (racemic) [Compound 13, 4-(5-chloro-2-(1-((3-methoxy-5-(1H-1,2,4-triazol-1-yl)phenyl)amino)-2-oxo-2-(6-(trifluoromethoxy)indolin-1-yl)ethyl)phenoxy)butanoic acid]	59500
COc1cc(NC(C(=O)N2CCc3ccc(OC(F)(F)F)cc32)c2ccc(Cl)cc2OCCC(C)(C)C(=O)O)cc(-n2cncn2)c1 (racemic) [Compound 14, 4-(5-chloro-2-(1-((3-methoxy-5-(1H-1,2,4-triazol-1-yl)phenyl)amino)-2-oxo-2-(6-(trifluoromethoxy)indolin-1-yl)ethyl)phenoxy)-2,2-dimethylbutanoic acid]	24900
COc1cc(NC(C(=O)N2CCc3cc(F)c(OC(F)(F)F)cc32)c2ccc(Cl)cc2OCCCC(=O)O)cc(-n2cncn2)c1 (racemic) [Compound 15, 4-(5-chloro-2-(2-(5-fluoro-6-(trifluoromethoxy)indolin-1-yl)-1-((3-methoxy-5-(1H-1,2,4-triazol-1-yl)phenyl)amino)-2-oxoethyl)phenoxy)butanoic acid]	58700
COc1cc(NC(C(=O)N2CCc3c(C)cc(OC(F)(F)F)cc32)c2ccc(Cl)cc2OCCCC(=O)O)cc(-n2cncn2)c1 (racemic) [Compound 16, 4-(5-chloro-2-(1-((3-methoxy-5-(1H-1,2,4-triazol-1-yl)phenyl)amino)-2-(4-methyl-6-(trifluoromethoxy)indolin-1-yl)-2-oxoethyl)phenoxy)butanoic acid]	95800
COc1cc(NC(C(=O)N2CCc3ccc(C(F)(F)F)cc32)c2ccc(F)cc2OCCO)cc(-n2cncn2)c1 (single isomer, unassigned) [Compound 1A]	7.8
COc1cc(NC(C(=O)N2CCc3cc(OC)c(C(F)(F)F)cc32)c2ccc(F)cc2OCCO)cc(-n2cncn2)c1 (single isomer, unassigned) [Compound 2A]	43
COc1cc(NC(C(=O)N2CCc3ccc(OC(F)(F)F)cc32)c2ccc(F)cc2OCCO)cc(-n2cncn2)c1 (single isomer, unassigned) [Compound 3A]	22
COc1cc(NC(C(=O)N2CCc3ccc(C(F)(F)F)cc32)c2ccc(Cl)cc2OCCO)cc(-n2cncn2)c1 (single isomer, unassigned) [Compound 4A]	6.4
COc1cc(NC(C(=O)N2CCc3cc(OC)c(C(F)(F)F)cc32)c2ccc(Cl)cc2OCCO)cc(-n2cncn2)c1 (single isomer, unassigned) [Compound 5A]	275
COc1cc(NC(C(=O)N2CCc3ccc(OC(F)(F)F)cc32)c2ccc(Cl)cc2OCCO)cc(-n2cncn2)c1 (single isomer, unassigned) [Compound 6B]	79
COc1cc(NC(C(=O)N2CCc3cc(F)c(C(F)(F)F)cc32)c2ccc(Cl)cc2OCCO)cc(-n2cncn2)c1 (single isomer, unassigned) [Compound 7A]	26
COc1cc(NC(C(=O)N2CCc3cc(OC)c(OC(F)(F)F)cc32)c2ccc(Cl)cc2OCCO)cc(-n2cncn2)c1 (single isomer, unassigned) [Compound 8B]	47
COc1cc(NC(C(=O)N2CCc3cc(F)c(OC(F)(F)F)cc32)c2ccc(Cl)cc2OCCO)cc(-n2cncn2)c1 (single isomer, unassigned) [Compound 9A]	17
COc1cc(NC(C(=O)N2CCc3c(C)cc(OC(F)(F)F)cc32)c2ccc(Cl)cc2OCCO)cc(-n2cncn2)c1 (single isomer, unassigned) [Compound 10A]	165
COc1cc(NC(C(=O)N2CCc3ccc(C(F)(F)F)cc32)c2ccc(Cl)cc2OCCCC(=O)O)cc(-n2cncn2)c1 (single isomer, unassigned) [Compound 11A]	246
COc1cc(NC(C(=O)N2CCc3cc(OC)c(C(F)(F)F)cc32)c2ccc(Cl)cc2OCCCC(=O)O)cc(-n2cncn2)c1 (single isomer, unassigned) [Compound 12B]	37
COc1cc(NC(C(=O)N2CCc3ccc(OC(F)(F)F)cc32)c2ccc(Cl)cc2OCCCC(=O)O)cc(-n2cncn2)c1 (single isomer, unassigned) [Compound 13B]	972
COc1cc(NC(C(=O)N2CCc3ccc(OC(F)(F)F)cc32)c2ccc(Cl)cc2OCCC(C)(C)C(=O)O)cc(-n2cncn2)c1 (single isomer, unassigned) [Compound 14A]	22

Reference: US11083707B2, “Substituted indoline derivatives as dengue viral replication inhibitors” (JANSSEN PHARMACEUTICALS, INC., priority 2017, dated 2021)
